Measured values from several laboratories, pooled; numbers as filed in NIAID ChemDB.

Shared fields: cytotoxicity tests; cells: MT-4; read-out: CC50

Neighbouring rows are from separate reports. CCn is the concentration with n% toxicity to the cells. a–b is a range or a potency band.

| SMILES | value |
|---|---|
| O=C1O[C@H]2[C@@H]3OC(=O)c4cc(O)c(O)c(O)c4-c4c(cc(O)c(O)c4O)C(=O)OC[C@H]2O[C@@H](OC(=O)c2cc(O)c(O)c(O)c2)[C@@H]3OC(=O)c2cc(O)c(O)c3c2[C@@H]2C1=CC(=O)[C@](O)(O3)C2(O)O | 23.6 µg/mL |
| Cc1cn([C@@H]2O[C@H](COCc3ccccc3)C3(OS(=O)(=O)C=C3N)[C@H]2O[Si](C)(C)C(C)(C)C)c(=O)[nH]c1=O | 13 µM |
| CCc1c(Sc2ccccc2)n(COCc2ccccc2)c(=O)[nH]c1=O | 30 µM |
| Nc1ccn([C@H]2CO[C@@H](CO)O2)c(=O)n1 | 10 µg/mL |
| CCCCCCCCCCc1ccc2c(c1)N(C)[C@@H](C(C)C)C(=O)N[C@@H](CO)CC2 | 5–10 µg/mL |
| C[C@H](Cn1cnc2c(N)ncnc21)OCP(=O)(O)OP(=O)(O)OP(=O)(O)O | >200 µM |
| Cc1cn([C@@H]2O[C@H](CO[Si](C)(C)C(C)(C)C)C3(OC(=O)N(C)C3=N)[C@H]2O[Si](C)(C)C(C)(C)C)c(=O)n(C)c1=O | ≥175 µM |
| Cc1cn([C@@H]2O[C@H](CO[Si](c3ccccc3)(c3ccccc3)C(C)(C)C)C3(OS(=O)(=O)C=C3N)[C@H]2O[Si](C)(C)C(C)(C)C)c(=O)n(C)c1=O | 45 µM |
| Nc1ncnc2c1ncn2[C@H]1CC[C@@H](CO)O1 | >100 µM |
| [N-]=[N+]=N[C@H]1C[C@H](n2cc(Cl)c(N)nc2=O)O[C@@H]1CO | >877 µM |
| COc1cc2c(c(O)c1CC=C(C)C)C(=O)C(c1ccc(O)cc1O)CO2 | 9 µg/mL |
| Nc1nc(=O)n([C@H]2CO[C@@H](CO)S2)cc1F | >500 µM |
| Cc1cn([C@H]2C[C@H](N=[N+]=[N-])[C@@H](COP(=O)(OCCSC(=O)C(C)(C)C)OCCSC(=O)C(C)(C)C)O2)c(=O)[nH]c1=O | >10 µM |
| O=S(=O)(O)c1cc(O)c2c(NS(=O)(=O)c3ccc(-c4ccc(S(=O)(=O)Nc5cc(S(=O)(=O)O)cc6cc(S(=O)(=O)O)cc(O)c56)cc4)cc3)cc(S(=O)(=O)O)cc2c1 | 320 µM |
| Cc1cn([C@H]2C[C@H](N=[N+]=[N-])[C@@H](CO)O2)c(=O)[nH]c1=O | 1.15 µM |
| Nc1ncnc2c1ncn2CCOCP(=O)(O)O | 200 µM |
| Nc1ncc(CC2(CO)CCC2)c(=O)[nH]1 | >100 µM |
| C=C(Cn1cnc2c(=O)[nH]c(N)nc21)OCP(=O)(O)OP(=O)(O)OP(=O)(O)O | >200 µM |
| CC(=O)SCCOP(=O)(OCCSC(C)=O)OC[C@H]1O[C@@H](n2cc(C)c(=O)[nH]c2=O)C[C@@H]1N=[N+]=[N-] | 76 µM |
| CC(C)[C@H]1C(=O)N[C@H](CO)CCc2ccccc2N1C | >10 µg/mL |
| Cc1cn([C@@H]2O[C@H](COC(=O)c3ccccc3)[C@@H](O)[C@H]2OC(=O)c2ccccc2)c(=O)n(CC(=O)O)c1=O | 105 µM |
| COc1cc(O)ccc1C(=O)CC(=O)c1ccc(O)cc1 | 12 µg/mL |
| Nc1ncnc2c1ncn2[C@H]1CC[C@@H](CO)O1 | >200 µM |
| O=c1ccn([C@]2(c3ccccc3)C[C@@H]2CO)c(=O)[nH]1 | >100 µM |
| CCCCC/C=C\C/C=C\CCCCCCCC(=O)OCC1=C[C@H]2[C@@H]3C(C)(C)[C@]3(OC(C)=O)[C@H](O)[C@@H](C)[C@]2(O)[C@@H]2C=C(C)C(=O)[C@@]2(O)C1 | >62.5 µg/mL |
| O=S(=O)(O)OCC1OC2OC3C(COS(=O)(=O)O)OC(OC4C(COS(=O)(=O)O)OC(OC5C(COS(=O)(=O)O)OC(OC6C(COS(=O)(=O)O)OC(OC7C(COS(=O)(=O)O)OC(OC8C(COS(=O)(=O)O)OC(OC1C(OS(=O)(=O)O)C2OS(=O)(=O)O)C(OS(=O)(=O)O)C8OS(=O)(=O)O)C(OS(=O)(=O)O)C7OS(=O)(=O)O)C(OS(=O)(=O)O)C6OS(=O)(=O)O)C(OS(=O)(=O)O)C5OS(=O)(=O)O)C(OS(=O)(=O)O)C4OS(=O)(=O)O)C(OS(=O)(=O)O)C3OS(=O)(=O)O | >500 µg/mL |
| CC(C)=CCN1Cc2cccc3[nH]c(=S)n(c23)C[C@@H]1C | >350 µM |
| CCCCCCCCCCc1ccc2c(c1)N(C)[C@@H](C(C)C)C(=O)NC(CO)C2 | 5–10 µg/mL |
| CC(=O)OCCOCn1cc(C=O)c2ccccc21 | >200 µM |
| Cc1cn([C@]2(c3ccccc3)C[C@@H]2CO)c(=O)[nH]c1=O | >100 µM |
| CCCCCCCCCCCC(=O)O[C@@]12[C@H](OC(=O)C(C)CC)[C@@H](C)[C@@]3(O)[C@@H](C=C(CO)C[C@]4(O)C(=O)C(C)=C[C@@H]34)[C@@H]1C2(C)C | >62.5 µg/mL |
| Cc1cn([C@@H]2O[C@H](CO[Si](C)(C)C(C)(C)C)C3(OC(=O)N=C3N)[C@H]2O[Si](C)(C)C(C)(C)C)c(=O)[nH]c1=O | 77 µM |
| NCC(=O)Nc1ccc(Cl)cc1C(=O)c1ccc[nH]1 | >1.7 µg/mL |
| Cc1c(Sc2ccccc2)n(COCCO)c(=S)[nH]c1=O | 124 µM |
| CC(C)[C@H]1C(=O)N[C@H](CO)Cc2c[nH]c3cccc(c23)N1C | 0.1 µg/mL |
| O=C(O[C@H](Cc1ccc(O)c(O)c1)C(=O)O)C1=Cc2cc(O)c(O)cc2[C@@H](c2ccc(O)c(O)c2)[C@@H]1C(=O)O[C@H](Cc1ccc(O)c(O)c1)C(=O)O | 29.2 µg/mL |
| O=c1cc(-c2ccc(O)cc2O)oc2cc(O)cc(O)c12 | 15 µg/mL |
| Nc1ccn([C@H]2CO[C@@H](CO)S2)c(=O)n1 | >500 µM |
| CCCCCCCCCCc1ccc2c(c1)N(C)[C@@H](C(C)C)C(=O)N[C@H](CO)C2 | 10 µg/mL |
| Cc1cn([C@@H]2O[C@H](CO[Si](C)(C)C(C)(C)C)[C@@]3(OS(=O)(=O)C=C3N)[C@H]2O[Si](C)(C)C(C)(C)C)c(=O)[nH]c1=O | >50 µM |
| O=C(CCCCCCCCCCC(=O)Nc1cc(S(=O)(=O)O)cc2cc(S(=O)(=O)O)cc(O)c12)Nc1cc(S(=O)(=O)O)cc2cc(S(=O)(=O)O)cc(O)c12 | 430 µM |
| Cc1cn([C@@H]2O[C@H](CO[Si](C)(C)C(C)(C)C)[C@@H](O)[C@H]2O[Si](C)(C)C(C)(C)C)c(=O)n(CC#N)c1=O | 6.7 µM |
| CC(=O)OCCOCn1c(-c2ccccc2)c(Br)c2ccccc21 | 120 µM |
| Cc1cn([C@H]2C[C@H](N=[N+]=[N-])[C@@H](CO[Si](C)(C)C(C)(C)C)O2)c(=O)n(CC(=O)O)c1=O | 80 µM |
| CCCCCCCCCCCCCC(=O)O[C@@H]1[C@@H](C)[C@@]2(O)[C@@H](C=C(CO)C[C@]3(O)C(=O)C(C)=C[C@@H]23)[C@@H]2C(C)(C)[C@]12OC(C)=O | >31.3 µg/mL |
| CCCCCCCCCCCCOC1OC(COS(=O)(=O)O)C(OC2OC(COS(=O)(=O)O)C(OC3OC(COS(=O)(=O)O)C(OC4OC(COS(=O)(=O)O)C(OC5OC(COS(=O)(=O)O)C(OC6OC(COS(=O)(=O)O)C(OS(=O)(=O)O)C(OS(=O)(=O)O)C6O)C(OS(=O)(=O)O)C5OS(=O)(=O)O)C(O)C4OS(=O)(=O)O)C(OS(=O)(=O)O)C3O)C(OS(=O)(=O)O)C2O)C(O)C1OS(=O)(=O)O | >1000 µg/mL |
| Cc1cn([C@@H]2O[C@H](CO[Si](C)(C)C(C)(C)C)[C@@H](O)[C@H]2O[Si](C)(C)C(C)(C)C)c(=O)n(CC(=O)ON)c1=O | 4.1 µM |
| CCCCCCCCCCCCCCCCOC1OC(COS(=O)(=O)O)C(O)C(OC2OC(COS(=O)(=O)O)C(OS(=O)(=O)O)C(OC3OC(COS(=O)(=O)O)C(O)C(OC4OC(COS(=O)(=O)O)C(OS(=O)(=O)O)C(OC5OC(COS(=O)(=O)O)C(OS(=O)(=O)O)C(OS(=O)(=O)O)C5OS(=O)(=O)O)C4OS(=O)(=O)O)C3OS(=O)(=O)O)C2OS(=O)(=O)O)C1OS(=O)(=O)O | >471 µg/mL |
| Cc1c(Sc2ccccc2)n(COCc2ccccc2)c(=O)[nH]c1=O | 63 µM |
| O=c1c(O)c(-c2ccc(O)c(O)c2)oc2cc(O)ccc12 | >12.5 µg/mL |
| CC(=O)SCCOP(=O)(OCCSC(C)=O)OC[C@@H]1CC[C@H](n2cnc3c(N)ncnc32)O1 | 16 µM |
| COC(=O)CCn1c(=O)c(C)cn([C@@H]2O[C@H](CO[Si](C)(C)C(C)(C)C)[C@@H](O)[C@H]2O[Si](C)(C)C(C)(C)C)c1=O | 17 µM |
| Cc1cn([C@@H]2O[C@H](CO[Si](c3ccccc3)(c3ccccc3)C(C)(C)C)C3(OS(=O)(=O)C=C3N)[C@H]2O[Si](c2ccccc2)(c2ccccc2)C(C)(C)C)c(=O)[nH]c1=O | >150 µM |
| CC(C)(C)C(=O)SCCOP(=O)(OCCSC(=O)C(C)(C)C)OCC1(Cc2cnc(N)[nH]c2=O)CCC1 | 89.5 µM |
| C/C=C(/C)C(=O)O[C@@H]1[C@@H](C)[C@@]2(O)C(C=C(CO)C[C@]3(O)C(=O)C(C)=CC23)C2C(C)(C)[C@@]21OC(=O)C(C)CC | >62.5 µg/mL |
| CC(C)[C@H]1C(=O)N[C@H](CO)Cc2ccccc2N1C | 1.3 µg/mL |
| CC(C)OP(=O)(COC[C@H]1C[C@@]1(c1ccccc1)n1ccc(N)nc1=O)OC(C)C | >100 µM |
| O=C(O[C@@H]1Cc2c(O)cc(O)cc2O[C@@H]1c1ccc(O)c(O)c1)c1cc(O)c(O)c(O)c1 | 36.2 µg/mL |
| Nc1ncnc2c(CC3(CO)CCC3)c[nH]c12 | >100 µM |
| O=C(OC1OC2COC(=O)c3cc(O)c(O)c(O)c3-c3c(cc(O)c(O)c3O)C(=O)OC2C(OC(=O)c2cc(O)c(O)c(O)c2)C1OC(=O)c1cc(O)c(O)c(O)c1)c1cc(O)c(O)c(Oc2c(C(=O)O)cc(O)c(O)c2O)c1 | 32.6 µg/mL |
| Cc1ccc(S(=O)(=O)OC[C@H]2O[C@@H](n3cc(C)c(=O)n(C)c3=O)[C@H](O[Si](C)(C)C(C)(C)C)C23OS(=O)(=O)C=C3N)cc1 | 42 µM |
| C[C@@]1(CO)CC[C@H](c2c[nH]c3c(N)ncnc23)C1 | >100 µM |
| CCCCCCCCCCCCOC1OC(COS(=O)(=O)O)C(OS(=O)(=O)O)C(OC2OC(COS(=O)(=O)O)C(OS(=O)(=O)O)C(OC3OC(COS(=O)(=O)O)C(OS(=O)(=O)O)C(OC4OC(COS(=O)(=O)O)C(OS(=O)(=O)O)C(OC5OC(COS(=O)(=O)O)C(OS(=O)(=O)O)C(OS(=O)(=O)O)C5OS(=O)(=O)O)C4OS(=O)(=O)O)C3OS(=O)(=O)O)C2OS(=O)(=O)O)C1OS(=O)(=O)O | >1000 µg/mL |
| Cc1cn([C@@H]2O[C@H](CO[Si](C)(C)C(C)(C)C)[C@@H](O)[C@H]2O[Si](C)(C)C(C)(C)C)c(=O)n(CC(=O)O)c1=O | 18.8 µM |
| N#Cc1cn(COCCO)c2ccccc12 | >200 µM |
| CCOCn1c(Sc2cc(C)cc(C)c2)c(C(C)C)c(=O)[nH]c1=S | >50 µM |
| Oc1cc(O)c2c(c1)O[C@H](c1ccc(O)c(O)c1)[C@H](O)C2 | 72.5 µg/mL |
| Cc1cn([C@@H]2O[C@H](CO[Si](C)(C)C(C)(C)C)[C@@H](O[Si](C)(C)C(C)(C)C)[C@H]2O)c(=O)n(CC(=O)ON)c1=O | 4.4 µM |
| C1CNCCNCC(CCCC2CNCCNCCCNCCNC2)CNCCNC1 | 300 µM |
| Cc1cn([C@@H]2O[C@H](CO[Si](C)(C)C(C)(C)C)[C@@H](O[Si](C)(C)C(C)(C)C)[C@H]2O)c(=O)n(CCO)c1=O | 35 µM |
| C[C@H](Cn1cnc2c(N)ncnc21)OCP(=O)(O)O | >200 µM |

A second listing of 7 rows from above:

SMILES	value
O=c1ccn([C@]2(c3ccccc3)C[C@@H]2CO)c(=O)[nH]1	>100 µM
Nc1ncnc2c(CC3(CO)CCC3)c[nH]c12	>100 µM
CC(=O)OCCOCn1cc(C=O)c2ccccc21	>200 µM
O=C(CCCCCCCCCCC(=O)Nc1cc(S(=O)(=O)O)cc2cc(S(=O)(=O)O)cc(O)c12)Nc1cc(S(=O)(=O)O)cc2cc(S(=O)(=O)O)cc(O)c12	430 µM
Cc1cn([C@@H]2O[C@H](CO[Si](C)(C)C(C)(C)C)[C@@H](O)[C@H]2O[Si](C)(C)C(C)(C)C)c(=O)n(CC(=O)O)c1=O	18.8 µM
Cc1cn([C@H]2C[C@H](N=[N+]=[N-])[C@@H](CO)O2)c(=O)[nH]c1=O	1.15 µM
C=C(Cn1cnc2c(=O)[nH]c(N)nc21)OCP(=O)(O)OP(=O)(O)OP(=O)(O)O	>200 µM